Measurements taken from patent publication US20090270312A1, “HIV-I GP41 FUSION PEPTIDES FOR IMMUNOMODULALTION” (priority 2005, published 2009).

Test system: A2b cells
Assay: Co-localization of peptides with membrane molecules (fluorescence confocal microscopy)
Format: cell-based, rat
Conditions: for co-localization with the CD4 and TCR molecules: FITC-labeled antibodies to CD4 or TCR, FIG. 2B-C; for distribution on the membrane of activated T cells: fluorescently labeled peptide, FIG. 2A

| Substance | co-localization with the CD4 and TCR molecules | distribution on the membrane of activated T cells |
| --- | --- | --- |
| FP-NBD: FP conjugated to NBD (AVGIGALFLGFLGAAGSTMGARSMTLTVQARQL) | showed the same co-localization | inserted themselves into a particular membrane domain |
| FP-Rho: FP conjugated to Rhodamine (AVGIGALFLGFLGAAGSTMGARSMTLTVQARQL) | showed the same co-localization | inserted themselves into a particular membrane domain |
